Compound potency records, mixed from different reports. Data source: NIAID ChemDB in PubChem.

All rows: tests in culture; agent: Influenza B virus; cells: MDCK; read by: cytopathic effect; endpoint: EC50

ECn is the concentration giving n% inhibition of infection, replication or growth. Blank or dashed fields: not listed here. Lines come from different laboratories, so protocols vary.

compound	strain	result
CON=C[C@H]1O[C@@H](n2cnc3c(N)ncnc32)[C@H](O)[C@@H]1O	Singapore	4 µg/mL
CCOc1ncn(-c2ccc(NC(=S)Nc3cnccn3)cc2)n1	Singapore	>20 µg/mL
Nc1ncnc2c1ncn2[C@@H]1O[C@H](C=NOCc2ccccc2)[C@@H](O)[C@H]1O	Singapore	20 µg/mL
CC1(CO)CCC(Cn2nnc3c(Cl)ncnc32)C1(C)C	HONG KONG/5/72	10 µg/mL
CC1(CO)CCC(Cn2nnc3c(Cl)nc(N)nc32)C1(C)C	HONG KONG/5/72	>50 µg/mL
CCCOc1ncn(-c2ccc(NC(=S)Nc3cnccn3)cc2)n1	Singapore	>100 µg/mL
CC1(CO)CCC(Cn2cnc3c(N)nc(N)nc32)C1(C)C	HONG KONG/5/72	>50 µg/mL
CC(C)CS[C@H]1C[C@@H](n2cnc3c(N)ncnc32)[C@H](O)[C@@H]1O		>100 µg/mL
CC=NC(=N)c1nc(-c2cccc(C)c2)n(C/C=C/c2ccccc2)n1	Singapore	>20 µg/mL
CCOc1ncn(-c2ccc(NC(=S)Nc3cccc(O)c3)cc2)n1	Singapore	>200 µg/mL
CC[C@@H](O)C1=C[C@@H](n2cnc3c(N)ncnc32)[C@H](O)[C@@H]1O	HONG KONG	>250 µg/mL
CC1(CO)CCC(Cc2nc3ncnc(N)c3[nH]2)C1(C)C	HONG KONG/5/72	>250 µg/mL
C#C[C@@H](O)C1=C[C@@H](n2cnc3c(N)ncnc32)[C@H](O)[C@@H]1O	HONG KONG	>50 µg/mL
CC=NC(=N)c1nc(-c2cccc(OC)c2)n(C/C=C/c2ccccc2)n1	Singapore	>100 µg/mL
C=C[C@@H](O)C1=C[C@@H](n2cnc3c(N)ncnc32)[C@H](O)[C@@H]1O	HONG KONG	>50 µg/mL
CC=NC(=N)c1nc(-c2cccc(OC)c2)n(Cc2ccccc2)n1	Singapore	>100 µg/mL
O=C(NCCc1ccccc1)C1=Cc2ccncc2CC1		>344 µM
CC=NC(=N)c1nc(-c2ccc(OC)cc2)n(Cc2ccccc2)n1	Singapore	>100 µg/mL
CC1(CO)CCC(Cn2nnc3c(=O)[nH]c(N)nc32)C1(C)C	HONG KONG/5/72	>50 µg/mL
CCCOc1ncn(-c2ccc(NC(=S)Nc3cccc(O)c3)cc2)n1	Singapore	>100 µg/mL
CC=NC(=N)c1nc(-c2ccc(C)cc2)n(COCCO)n1	Singapore	>100 µg/mL
CC1(CO)CCC(Cn2cnc3c(=O)[nH]cnc32)C1(C)C	HONG KONG/5/72	>250 µg/mL
CCCOc1ncn(-c2ccc(NC(=S)NC3O[C@H](CO)[C@@H](O)[C@H](O)[C@H]3O)cc2)n1	Singapore	>200 µg/mL
Nc1ccn([C@@H]2C=C(CO)[C@@H](O)[C@H]2O)c(=O)n1		4.5 µg/mL
CC(C)Oc1ccccc1CNC(=O)c1ccc2cnccc2n1		10 µM